Where a chain is given by its changes, count along the chain named. Human monoclonal antibodies against the spike receptor-binding domain (heavy:light variable regions). IC50 against pseudoviruses bearing the spike of naturally observed variants; lower = stronger; >10 µg/ml means not reached at the top dose. No active / inactive call. The stated detection limit is 0.0005 µg/ml; values near or below 0.001 µg/ml lie at the floor of the assay.
B1: BD56-728 (protein)
chain 1: EVHLVQSGAEVKKPGESLKISCKGSGYSFISYWIGWVRQMPGKGLEWMGIIYPGDSDTRYSPSFQGQVTISADKSISTTYLQWSSLKASDTAMYYCAGGSSDSGDSRGFDIWGQGTMVTVPS
chain 2: QSVLTQPPSASGTPGQRVTISCSGNSSNIGSNFVNWYQQLPGTAPKLLIYLNNQRPSGVPDRFSGSKSGTSASLAISGLQSEDEADYYCAAWDDSLNGPVFGGGTKLTVL
B2: BD56-902 (protein)
chain 1: EVQLVESGGSLVQPGRSLRLSCAASGFTFDDYAMHWVRQAPGKGLEWVSGISWNGHNIGYADSVKGRVTISRDNAKNSLYLQLNSLRAEDTALYYCAKDILGEWELHQAYFDYWGQGTLVTVSS
chain 2: B1 chain 2 with N25S, N32K, N35Y, Q39H, L51R, Q80R, D86E, N97S, G103T, L107V
B3: BD56-887 (protein)
chain 1: QVQLVQSGAEVKKPGASVKVSCKASGYTFTSYDINWVRQATGQGLEWMGWMNPNRGNTGYAQKFQGRVTMTRNTSISTAYMELSSLRSEDTAVYYCASGEGLGYWGQGTLVTVSS
chain 2: QSVLTQPPSVSEAPRQRVTISCSGSSSNIGNNDVKWYQQLPGKAPKLLIYYDDLLPSGVSDRFSGSKSGTSASLAISGLQSEDEADYYCAAWDDSLNGVVFGGGTKLTVL
B4: BD56-725 (protein)
chain 1: EVQLVESGGGLVQPGRSLRLSCAASGFTFDDYAMHWVRQTPGKGLEWVSGISWNSASVGYGDSVKGRFTISRDNAKNSLYLHMNSLRPEDTALYYCAKGREYSSSAEPDNWGQGTLVIVSS
chain 2: DIQMTQSPSTVSASVGDRVTVTCRASQDISSWLAWYQQKPGKAPKLLIYGASSLQSGVPSRFSGSGSGTDFTLTISSLQPEDFATYYCQQTNSFPITFGQGTRLEIK
B5: BD56-720 (protein)
chain 1: EVQLLESGGILVQPGGSLRLSCAASGFTFSSYAMSWVRQAPGKGLEWVSGISISGTSTYYADSVRGRFTISRDNSKNTLYLQMNSLRAEDTAVYYCAKEIPSYDNSHYYAGCYFDNWGQGTLVTVSS
chain 2: QSVLTQPPSVSAAPGQKVTISCSGSNSNIGNNYVSWYRQLPGAAPRLLIYDNNKRPSGIPDRFSGSKSGTSATLGVTGLQTGDEAEYFCGTWDSSLSAVVFGGGTKLTVL
B6: BD56-906 (protein)
chain 1: QVQLVESGGGVVQPGRSLRLSCAASGFTFSSYGMHWVRQAPGKGLEWVAVISYDGSNKYYADSVKGRLTISRDNSKNTLYLQMSSLRAEDTAVYYCAKTDGTYAYYYYGMDVWGQGTTVTVSS
chain 2: QSALTQPASVSGSPGQSITISCTGTSSDVGFYNYVSWYQQHPGKAPKLMIYEVSNRPSGVSNRFSGSKSGNTASLTISGLQAEDEADYYCSSYTSSSTWVFGGGTKLTVL
B7: CV07-200 (protein)
chain 1: QVQLVQSGTEMKKPGASVKVSCKASGYTFTGYYMHWVRQAPGQGLEWMGWINPNSGGTNYAQKFQGRVTMTRDTSIRTVYMELSRLRSDDTAVYYCARGPFYYDNSGTLGGLDVWGQGTTVTVSS
chain 2: B6 chain 2 with F31G, W99Y, G103T, L107V
B8: BD56-916 (protein)
chain 1: QVQLQESGPGLVKPSETLSLTCTVSGASVSSRSWHWSWIRQSPGKGLEWIGYIHYSGSTKFNPSLKSRVTISVDTSKNQFSLKLRSVTAADTAVYYCARDGGGDYGEDWGQGTLVTVSS
chain 2: DIQMTQSPSTLSASVGDRVTITCRASQSINVWLAWYQQKPGKAPKLLIYKAYSLESGVPSRFSGSGSGTEFTLTISSLQPDDFATYYCQQYSSYWTFGQGTKVEMK
B9: BD56-726 (protein)
chain 1: QVQLQESGPGLVKPSETLSLTCTVSGGAVSSGSYYWSWIRQPPGEGLEWIGYIYYSGSTNYNPSLKSRVTISVDTSKNQFSLKLSSVTAADTAVYYCARDYLVVGGSGIYYNGQFYNYYGMDVWGQGTTVTVSS
chain 2: SYELTQPPSVSVSPGQTARITCSGDELPKQYAYWYQQKPGQSPVLVIYKDSERPSGIPERFSGSNSGTTVTLTISGVQAEDEADYYCQSADSSATYSWVFGGGTKLTVL
B10: BD56-731 (protein)
chain 1: QLQLQESGPGLVKPSETLSLTCTVSRGSISNNNYYWGWIRQPPGKGLEWIGNIDYGGSTYFNPSLKSRVTISVDTSKSQFSLKLTSVTAADTAVYHCAKYGDSRMGYWYFDLWGRGTLVTVSS
chain 2: DIQMTQSPSSLSASVGDRVTITCRASQSISNYLNWYHQKSGKAPKLLIYAASSLQSGVPSRFSGSGSETDFTLTIRSLQPEDFGTYYCQQSYSTHSITFGQGTRLEIK
B11: BD56-732 (protein)
chain 1: EVQLLESGGGLVQPGGSLRLSCAASRFIFSNYAMSWVRQAPGKGLEWVSGISGGGDSTHYADSVKGRFTISRDNSKNTLFLHMNSLRADDTAVYYCAKGARASGDYFEYWGQGTLVNVSS
chain 2: DIQMTQSPSTLSASVGDRVTITCRASQSIRNWLAWYQQKPGKAPNLLIYDASSLESGVPSRFSGSGSGTEFTLTISSLQPDDFATYYCQQYNTYPFTFGPGTKVDIK
B12: BD56-733 (protein)
chain 1: QVQLQQWGAGLLKPSETLSLTCAVYGGSFSGYFWNWIRQPPGKGLEWIGEISHSGSTNYNPSLKSRVTISVDTSKNQFSLKLSSVTAADTAVYYCTRGGWEYYASLPGPNDYWGQGTLVTVSS
chain 2: DIVLTQSPDSLAVSLGERASITCKSSQSVFYNSNNKNYLAWYQQKPGQPPNLLIYWASARESGVPDRFSGSGSGTDFSLTISSLQAEDVAVYYCQQYYTTPYTFGQGTRLEIK

Biological target: SARS-CoV-2 Omicron BA.1 spike pseudovirus
Test: pseudovirus neutralization IC50; higher = weaker neutralization
Procedure: (§1)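 Single-round VSV luciferase pseudovirus mixed with antibody dilutions for 1 h and put on Huh-7 cells for about a day; IC50 from the dose curve.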

Binder | pseudovirus neutralization IC50
B1 | > 10 µg/mL
B2 | > 10 µg/mL
B3 | 0.0021 µg/mL
B4 | 1.21 µg/mL
B5 | 1.27 µg/mL
B6 | > 10 µg/mL
B7 | > 10 µg/mL
B8 | > 10 µg/mL
B9 | 1.4 µg/mL
B10 | 1.59 µg/mL
B11 | 4.28 µg/mL
B12 | 0.379 µg/mL

Biological target: SARS-CoV-2 Omicron BA.2 spike pseudovirus
Test: as above
Procedure: as §1

Binder | pseudovirus neutralization IC50
B1 | > 10 µg/mL
B2 | > 10 µg/mL
B3 | 0.00193 µg/mL
B4 | 1.04 µg/mL
B5 | 1.9 µg/mL
B6 | > 10 µg/mL
B7 | > 10 µg/mL
B8 | > 10 µg/mL
B9 | 1.55 µg/mL
B10 | 2.95 µg/mL
B11 | 6.08 µg/mL
B12 | 3.02 µg/mL

Biological target: SARS-CoV-2 Omicron BA.2.75 spike pseudovirus
Test: as above
Procedure: as §1

Binder | pseudovirus neutralization IC50
B1 | > 10 µg/mL
B2 | > 10 µg/mL
B3 | 0.0409 µg/mL
B4 | 2.41 µg/mL
B5 | 2.15 µg/mL
B6 | > 10 µg/mL
B7 | > 10 µg/mL
B8 | > 10 µg/mL
B9 | 1.04 µg/mL
B10 | 2.65 µg/mL
B11 | 5.67 µg/mL
B12 | 3.48 µg/mL

Biological target: SARS-CoV-2 Omicron BA.5 spike pseudovirus
Test: as above
Procedure: as §1

Binder | pseudovirus neutralization IC50
B1 | > 10 µg/mL
B2 | > 10 µg/mL
B3 | 0.692 µg/mL
B4 | 0.916 µg/mL
B5 | 3.43 µg/mL
B6 | > 10 µg/mL
B7 | > 10 µg/mL
B8 | > 10 µg/mL
B9 | 2.61 µg/mL
B10 | 2.52 µg/mL
B11 | 6.69 µg/mL
B12 | 3.07 µg/mL

Biological target: SARS-CoV-2 Omicron BQ.1.1 spike pseudovirus
Test: as above
Procedure: as §1

Binder | pseudovirus neutralization IC50
B1 | > 10 µg/mL
B2 | > 10 µg/mL
B3 | > 10 µg/mL
B4 | 2.74 µg/mL
B5 | 3.5 µg/mL
B6 | > 10 µg/mL
B7 | > 10 µg/mL
B8 | > 10 µg/mL
B9 | 2.67 µg/mL
B10 | 3.02 µg/mL
B11 | 7.27 µg/mL
B12 | 3.14 µg/mL

Biological target: SARS-CoV-2 Omicron XBB spike pseudovirus
Test: as above
Procedure: as §1

Binder | pseudovirus neutralization IC50
B1 | > 10 µg/mL
B2 | > 10 µg/mL
B3 | 0.788 µg/mL
B4 | 5.85 µg/mL
B5 | 4.99 µg/mL
B6 | > 10 µg/mL
B7 | > 10 µg/mL
B8 | > 10 µg/mL
B9 | 3.52 µg/mL
B10 | 5.17 µg/mL
B11 | 6.6 µg/mL
B12 | 2.33 µg/mL

Biological target: SARS-CoV-2 early D614G spike pseudovirus
Test: as above
Procedure: as §1

Binder | pseudovirus neutralization IC50
B1 | > 10 µg/mL
B2 | 0.316 µg/mL
B3 | > 10 µg/mL
B4 | 1.53 µg/mL
B5 | > 10 µg/mL
B6 | > 10 µg/mL
B7 | 0.0301 µg/mL
B8 | 0.338 µg/mL
B9 | > 10 µg/mL
B10 | > 10 µg/mL
B11 | > 10 µg/mL
B12 | 1.4 µg/mL
